Anti-infective test results gathered from many reports (values: NIAID ChemDB through PubChem).

Common to all: tests in culture; species: Candida albicans

ECn is the concentration giving n% inhibition of infection, replication or growth. Lines come from different laboratories, so protocols vary. An empty or dashed field is not shown. A number after MIC or MFC names an inhibition level or a share of isolates. Two numbers with a dash give a range or band.

structure	measure	strain or isolate	read by	result
COc1c(-c2ccccc2)oc2c(ccc3sccc32)c1=O	MIC			12.5 µg/mL
CCCCCCCC(=O)N[C@H]1CC2C(=O)NCCC[C@H](NC(=O)c3ccc(-c4ccc(-c5ccc(OCCCCC)cc5)cc4)cc3)C(=O)NC(C(C)O)C(=O)N3C[C@H](O)CC3C(=O)NC(CCc3ccc(O)cc3)C(=O)NC(C(C)O)C(=O)N2C1	MIC	ATCC 10231		50 µg/mL
CCCCCCCCCCCCCCn1cc[n+](COCCCCCOC[n+]2ccn(CCCCCCCCCCCCCC)c2)c1	MIC100	ATCC 90028	agar diffusion	27 µM
C[C@H]1[C@H](O)[C@@H](C)/C=C/C=C/C=C/C=C/C=C/C=C/C=C/[C@H](O[C@@H]2O[C@H](C)[C@@H](O)[C@H](N)[C@@H]2O)C[C@@H]2O[C@](O)(C[C@@H](O)C[C@@H](O)CC[C@H](O)[C@@H](O)C[C@@H](O)CC(=O)O[C@H]1C)C[C@H](O)[C@H]2C(=O)O	MIC	ATCC 10231	broth dilution / resazurin	0.49 µg/mL
N=C(N)c1ccc(-c2sc3ccc(C(=N)N)cc3c2N)cc1	MIC			30 µg/mL
C[C@H]1[C@H](O)[C@@H](C)/C=C/C=C/C=C/C=C/C=C/C=C/C=C/[C@H](O[C@@H]2O[C@H](C)[C@@H](O)[C@H](N)[C@@H]2O)C[C@@H]2O[C@](O)(C[C@@H](O)C[C@@H](O)CC[C@H](O)[C@@H](O)C[C@@H](O)CC(=O)O[C@H]1C)C[C@H](O)[C@H]2C(=O)O	EC50	35	broth dilution	1 µM
C=CCc1ccc(O)c(OC)c1	MIC90	2261	turbidity	500 µg/mL
OC(CCn1ccnc1)c1ccc(-c2ccccc2)cc1	MIC	RTCC1024	broth dilution	64 µg/mL
CCCCCCCCCCn1cc[n+](COCCCCCCOC[n+]2ccn(CCCCCCCCCC)c2)c1	MIC100	ATCC 90028	agar diffusion	2 µM
CCCCCCCCOc1ccc(N2CCN(c3ccc(C(=O)N[C@H]4CCCNC(=O)C5C[C@H](N)CN5C(=O)C(C(C)O)NC(=O)C(c5ccc(CO)cc5)NC(=O)C5CCCN5C(=O)C(C(C)O)NC4=O)cc3)CC2)cc1	MIC	ATCC CCH442		25 µg/mL
c1csc(C(c2cccc3ccccc23)n2ccnc2)c1	MIC50	23 strains		16 µg/mL
CC1CCC(C(C)C)C(OC(=O)c2ccccc2Br)C1	MIC			9.12 µM
COc1ccc(/C=C/C(=O)c2ccc3sccc3c2O)cc1	MIC			>50 µg/mL
C[n+]1ccn(COCCCCCCOCn2cc[n+](C)c2)c1	MIC100	ATCC 90028	agar diffusion	1634 µM
CC(=O)N1CCN(c2ccc(OC[C@H]3CO[C@](Cn4ccnc4)(c4ccc(Cl)cc4Cl)O3)cc2)CC1	MIC	SGY-243		0.08 µg/mL
CCCOC[N+](C)(C)Cc1cc(N=Nc2ccc(Cl)cc2)ccc1O	MBC			2512 µM
CNc1ccc(C(=O)CC(O)CCC(C)C2OC(=O)CC(O)CC(=O)CC(O)CC(O)CC(O)CC(O)CC3(O)CC(O)C(C(=O)N4CCN(CCO)CC4)C(CC(O[C@@H]4O[C@H](C)[C@@H](O)[C@H](NC(=O)CCN5CCCCC5)[C@@H]4O)/C=C/C=C/C=C/C=C\C=C/C=C/C=C/C2C)O3)cc1	MIC	73		0.015 µg/mL
c1ccc2c(C(c3ccc(-n4cccc4)cc3)n3ccnc3)cccc2c1	MIC50	23 strains		2 µg/mL
C(=C\c1cc2ccc(C3=NCCN3)cc2[nH]1)/c1cc2ccc(C3=NCCN3)cc2[nH]1	MIC			>60 µg/mL
COc1ccc(C(Cc2cccc(Cl)c2)n2ccnc2)cc1	MIC50	34 strains		128 µg/mL
CCC(C)CC(C)CCCCCCCCC(=O)N[C@H]1C[C@@H](O)[C@@H](OCCN)NC(=O)[C@@H]2[C@@H](O)CCN2C(=O)[C@H]([C@@H](O)CCN)NC(=O)[C@H]([C@H](O)[C@@H](O)c2ccc(O)cc2)NC(=O)[C@@H]2C[C@@H](O)CN2C(=O)[C@H]([C@H](C)O)NC1=O	MIC	ATCC64550		0.03 µg/mL
C[C@@H](c1ncncc1F)[C@](O)(Cn1cncn1)c1ccc(F)cc1F	MIC	W1016	broth dilution	4 µg/mL
C[C@H]1[C@H](O)[C@@H](C)/C=C/C=C/C=C/C=C/C=C/C=C/C=C/[C@H](O[C@@H]2O[C@H](C)[C@@H](O)[C@H](N)[C@@H]2O)C[C@@H]2O[C@](O)(C[C@@H](O)C[C@@H](O)CC[C@H](O)[C@@H](O)C[C@@H](O)CC(=O)O[C@H]1C)C[C@H](O)[C@H]2C(=O)O	MIC	2402E		0.004 µg/mL
c1csc(C(c2ccc3ccccc3c2)n2ccnc2)c1	MIC50	23 strains		8 µg/mL
Cc1ccc(C(C)C)cc1	MIC	M1		5–10 µg/mL
CCON1C(N)=NC(N)=NC1(C)C	MIC			>60 µg/mL
c1ccc(C(c2cccc3ccccc23)n2ccnc2)cc1	MIC90	23 strains		16 µg/mL
CCCCCOc1ccc(-c2ccc(-c3ccc(C(=O)N[C@H]4CCCNC(=O)[C@@H]5C[C@H](NC(C)=O)CN5C(=O)[C@H]([C@@H](C)O)NC(=O)[C@H](CCc5ccc(O)cc5)NC(=O)[C@@H]5C[C@@H](O)CN5C(=O)[C@H]([C@@H](C)O)NC4=O)cc3)cc2)cc1	MIC	ATCC 62376		0.2 µg/mL
CNc1ccc(C(=O)CC(O)CCC(C)C2OC(=O)CC(O)CC(=O)CC(O)CC(O)CC(O)CC(O)CC3(O)CC(O)C(C(=O)O)C(CC(O[C@@H]4O[C@H](C)[C@@H](O)[C@H](N)[C@@H]4O)/C=C/C=C/C=C/C=C\C=C/C=C/C=C/C2C)O3)cc1	MIC	73		0.06 µg/mL
COc1ccc(C(Cc2ccc(Cl)cc2)n2ccnc2)cc1	Geometric mean MIC	34 strains		15.74 µg/mL
C[C@H]1[C@H](O)[C@@H](C)/C=C/C=C/C=C/C=C/C=C/C=C/C=C/[C@H](O[C@@H]2O[C@H](C)[C@@H](O)[C@H](N)[C@@H]2O)C[C@@H]2O[C@](O)(C[C@@H](O)C[C@@H](O)CC[C@H](O)[C@@H](O)C[C@@H](O)CC(=O)O[C@H]1C)C[C@H](O)[C@H]2C(=O)O	MIC80	TIMM3315 (azole-resistant)		0.25 µg/mL
Cc1ccc(C(O)c2cccc(C(=O)CCn3ccnc3)c2)cc1	MIC	RTCC 1003	broth dilution	>64 µg/mL
CCCCCOc1ccc(N(C)CCN(C)c2ccc(C(=O)N[C@H]3CCCNC(=O)C4C[C@H](N)CN4C(=O)C(C(C)O)NC(=O)C(CCc4ccc(O)cc4)NC(=O)C4C[C@@H](O)CN4C(=O)C(C(C)O)NC3=O)cc2)cc1	MIC	ATCC 10231		3.12 µg/mL
CCCCCCn1cc[n+](COCCOC[n+]2ccn(CCCCCC)c2)c1	MIC100	ATCC 90028	agar diffusion	86 µM
COc1ccc(C(Cc2c(Cl)cccc2Cl)n2ccnc2)cc1	MIC50	34 strains		16 µg/mL
c1ccc(C(c2ccc3ccccc3c2)n2ccnc2)cc1	Mean MIC	23 strains		9.4 µg/mL
N=C(N)c1ccc(C=Cc2ccc(C(=N)N)cc2)cc1	MIC			3 µg/mL
O=C(CCn1ccnc1)c1cccc(C(O)c2ccc(Br)cc2)c1	MIC	RTCC 1003	broth dilution	>64 µg/mL
Cc1ccccc1C(=O)OC1CC(C)CCC1C(C)C	MIC			22.91 µM
CS(=O)(=O)OCC1COC(Cn2ccnc2)(c2ccc(-c3ccccc3)cc2)O1	Mean MIC	44 strains		110.4 µg/mL
COc1ccc(C(Cc2ccccc2[N+](=O)[O-])n2ccnc2)cc1	MIC50	34 strains		256 µg/mL
CNc1ccc(C(=O)CC(O)CCC(C)C2OC(=O)CC(O)CC(=O)CC(O)CC(O)CC(O)CC(O)CC3(O)CC(O)C(C(=O)N4CCN(CCO)CC4)C(CC(O[C@@H]4O[C@H](C)[C@@H](O)[C@H](NC(=O)CN(C)C)[C@@H]4O)/C=C/C=C/C=C/C=C\C=C/C=C/C=C/C2C)O3)cc1	MIC	200		0.06 µg/mL
Cc1ccc(N=Nc2ccc(O)c(C[N+](C)(C)COC3CCCCC3)c2)cc1	MBC			299 µM
CNc1ccc(C(=O)CC(O)CCC(C)C2OC(=O)CC(O)CC(=O)CC(O)CC(O)CC(O)CC(O)CC3(O)CC(O)C(C(=O)N4CCN(CCO)CC4)C(CC(O[C@@H]4O[C@H](C)[C@@H](O)[C@H](NC(=O)CN5CCN(C)CC5)[C@@H]4O)/C=C/C=C/C=C/C=C\C=C/C=C/C=C/C2C)O3)cc1	MIC	200		0.06 µg/mL
CCCCCCCCCOC[N+](C)(C)Cc1cc(N=Nc2ccc(C)cc2)ccc1O	MBC			2166 µM
O=c1cc(-c2ccccc2)oc2c1ccc1sccc12	MIC			>50 µg/mL
COC(/C=C/c1ccccc1)=C1/C(=O)C=C(C)C1=O	MIC	ATCC 90028		1.56 µg/mL
CC1CCC(C(C)C)C(OC(=O)c2ccc(Br)cc2)C1	MIC			14.3 µM
CCCCCCCCCON1C(N)=NC(N)=NC1(C)C	MIC			>60 µg/mL
N=C(N)c1ccc(/C=C/c2cc3cc(C(=N)N)ccc3o2)cc1	MIC			30 µg/mL
Cc1ccc2c(c1)c1nnc(N3CCN(C)CC3)nc1n2C	MIC	2381E		4 µg/mL
Cc1ccc(C(=O)OC2CC(C)CCC2C(C)C)cc1	MIC			11.48 µM
CCCCCOc1ccc(-c2ccc(-c3ccc(C(=O)N[C@H]4CCCNC(=O)[C@@H]5C[C@H](N)CN5C(=O)[C@H](Cc5ccc(O)cc5)NC(=O)C(CCc5ccc(O)cc5)NC(=O)[C@@H]5C[C@@H](O)CN5C(=O)[C@H]([C@@H](C)O)NC4=O)cc3)cc2)cc1	MIC	ATCC 62376		1.56 µg/mL
OC[C@@H]1CO[C@](Cn2ccnc2)(c2ccc(-c3ccccc3)cc2)O1	EC50	44 strains		32 µg/mL
COc1ccc(C(Cc2ccc(F)cc2)n2ccnc2)cc1	MIC90	34 strains		64 µg/mL
CNc1ccc(C(=O)CC(O)CCC(C)C2OC(=O)CC(O)CC(=O)CC(O)CC(O)CC(O)CC(O)CC3(O)CC(O)C(C(=O)NCCN(C)C)C(CC(O[C@@H]4O[C@H](C)[C@@H](O)[C@H](NC(=O)CN(C)C)[C@@H]4O)/C=C/C=C/C=C/C=C\C=C/C=C/C=C/C2C)O3)cc1	MIC	200		0.03 µg/mL
O=C(OCC1COC(Cn2ccnc2)(c2ccc(-c3ccccc3)cc2)O1)c1ccccc1	MIC50	44 strains		8 µg/mL
COC(=O)C1CCc2sccc2C1=O	MIC			50 µg/mL
CNc1ccc(C(=O)CC(O)CCC(C)C2OC(=O)CC(O)CC(=O)CC(O)CC(O)CC(O)CC(O)CC3(O)CC(O)C(C(=O)NCCN(C)C)C(CC(O[C@@H]4O[C@H](C)[C@@H](O)[C@H](NC(=O)CN5CCN(CCO)CC5)[C@@H]4O)/C=C/C=C/C=C/C=C\C=C/C=C/C=C/C2C)O3)cc1	MIC	73		0.03 µg/mL
NC1=NC2(CCCCC2)N(OCCCCCCCCCCCCc2ccccc2)C(N)=N1	MIC			1.9 µg/mL
Fc1ccc(C(c2ccc3ccccc3c2)n2ccnc2)cc1	MIC50	23 strains		4 µg/mL
COc1ccc(C(Cc2ccc(N)cc2)n2ccnc2)cc1	MIC50	34 strains		4 µg/mL
CCCCCCCCCCCCCCCCn1cc[n+](COCCOC[n+]2ccn(CCCCCCCCCCCCCCCC)c2)c1	MIC100	ATCC 90028	agar diffusion	108 µM
OC[C@H]1CO[C@](Cn2ccnc2)(c2ccc(-c3ccccc3)cc2)O1	EC50	44 strains		32 µg/mL
Cc1ccc(N=Nc2ccc(O)c(C[N+](C)(C)COC3CCCCCCCCCCC3)c2)cc1	MBC			1994 µM
COc1ccc([C@@H](Cc2ccc(Cl)cc2Cl)n2ccnc2)cc1	MIC50	34 strains		1 µg/mL
Clc1ccc(C(c2cccc3ccccc23)n2ccnc2)cc1	MIC90	23 strains		4 µg/mL
CCCC(C)Oc1ccc(CON2C(N)=NC(N)=NC2(C)C)cc1	MIC			60 µg/mL
COc1ccc(C(Cc2ccccc2F)n2ccnc2)cc1	MIC50	34 strains		128 µg/mL
COc1c(C(=O)/C=C(\O)c2ccccc2)ccc2sccc12	MIC			>50 µg/mL
O=C(CCn1ccnc1)c1ccc(Cl)cc1	MIC	RTCC1024	broth dilution	>64 µg/mL